From US20210330736A1 (UNIVERSITEIT VAN AMSTERDAM, priority 2018, published 2021)

Target: mouse GUCY2C (endogenous, in mouse striatal slices) (mouse, UniProt Q3UWA6)
Assay: cell-based or functional assay

## NDCCELCCNVACTGCL [peptide 4]
  P-S40 TH/TTH, fold change (average), mouse striatal slices, 10 µM, 1 h (WES): 1 fold change (average)
